Compound potency records, mixed from different reports. Data source: NIAID ChemDB in PubChem.

Shared fields: whole-cell or culture tests; organism: Cryptococcus neoformans; read-out: MIC

Blank or dashed fields: not listed here.

SMILES	strain	result
CC(=O)O[C@@H]1C[C@@]23C(=O)OC[C@](C)([C@@H]2CC[C@H]2C3=CC[C@@]3(C)[C@H](C(=O)O)[C@@](C)([C@H](C)C(C)C)CC[C@]23C)[C@H]1O[C@@H]1O[C@H](CO)[C@@H](O)[C@H](O)[C@H]1O	MY2062	>64 µg/mL
COc1cc(Cc2cnc(N)nc2N)cc(OC)c1OC	-	0.06–64 µg/mL
Cc1c(N)nc([C@H](CC(N)=O)NC[C@H](N)C(N)=O)nc1C(=O)N[C@H](C(=O)N[C@H](C)[C@@H](O)[C@H](C)C(=O)N[C@H](C(=O)NCCc1nc(-c2nc(C(=O)NCCC[S+](C)C)cs2)cs1)[C@@H](C)O)C(O[C@@H]1O[C@@H](CO)[C@@H](O)[C@H](O)[C@@H]1O[C@H]1O[C@H](CO)[C@@H](O)[C@H](OC(N)=O)[C@@H]1O)c1cnc[nH]1	Isolate 94-181	0.78 µg/mL
OC(Cn1cncn1)(Cn1cncn1)c1ccc(F)cc1F	H99 ΔFRR1 mutant	6.25 µg/mL
COc1cc(O)c2c(c1)C(=O)c1c(cc3c(c1O)-c1c(cc(C)c(C(=O)NC(C)C(=O)O)c1O)[C@H](OC1OCC(O)C(O)C1O)[C@H]3O)C2=O	IAM 4514	>100 µg/mL
CCC(C)CC(C)CCCCCCCCC(=O)N[C@H]1C[C@@H](O)[C@H](NCCN)NC(=O)[C@@H]2[C@@H](O)CCN2C(=O)[C@H]([C@H](O)CCN)NC(=O)[C@H]([C@H](O)[C@@H](O)c2ccc(O)cc2)NC(=O)[C@@H]2C[C@@H](O)CN2C(=O)[C@H]([C@@H](C)O)NC1=O	H99 ΔCNA1 mutant	6.25 µg/mL
CNC1C(C)OC(O[C@H]2c3cc(C)c(C(=O)NC(C)C(=O)OC)c(O)c3-c3c(cc4c(c3O)C(=O)c3cc(OC)cc(O)c3C4=O)[C@@H]2O)C(O)C1OC1OC(CO)C(O)C1O	IAM 4514	6.3 µg/mL
CC(CCC(O)C(C)(O)CO)C1(O)CCC2(C)C3=C(CCC21C)C1(C)CCC(OC(=O)CCC(=O)O)C(C)(C)C1CC3	MY2061	>64 µg/mL
C[C@H]1O[C@@H](Oc2ccc(-c3coc4cc(O[C@@H]5O[C@H](C)[C@H](O)[C@H](O)[C@@H]5O)ccc4c3=O)cc2)[C@@H](O)[C@@H](O)[C@H]1O	B42419	3 µg/mL
CC1OC(OC2C(O[C@H]3CC[C@@]4(C)C(CC[C@]5(C)C4CC=C4C6CC(C)(C)CC[C@]6(C(=O)O)CC[C@]45C)[C@]3(C)CO)OCC(O)C2O)C(O)C(OC2OCC(O)C(O)C2O)C1O	KCTC 7224	25 µg/mL
COc1cc(O)c2c(c1)C(=O)c1c(cc3c(c1O)-c1c(cc(C)c(C(=O)NC(C)C(=O)O)c1O)[C@H](OC1COC4C(OC5OCC(O)C(O)C5O)C1OC(=O)N4C)[C@H]3O)C2=O	IAM 4514	25 µg/mL
C[C@H]1[C@@H](OC2CCC(O)CC2)O[C@@H]2O[C@]3(C)CC[C@H]4[C@H](C)CC[C@@H]1C24OO3	ATCC 90113	>50 µg/mL
CNC1C(C)OC(O[C@H]2c3cc(C)c(C(=O)NC(C)C(=O)O)c(O)c3-c3c(cc4c(c3O)C(=O)c3cc(OC)cc(O)c3C4=O)[C@@H]2O)C(O)C1OC1OCC(O)C(O)C1OC1OCC(O)C(O)C1O	IAM 4514	25 µg/mL
CCC(C)CC(C)CCCCCCCCC(=O)N[C@H]1C[C@@H](O)[C@H](NCCN)NC(=O)[C@@H]2[C@@H](O)CCN2C(=O)[C@H]([C@H](O)CCN)NC(=O)[C@H]([C@H](O)[C@@H](O)c2ccc(O)cc2)NC(=O)[C@@H]2C[C@@H](O)CN2C(=O)[C@H]([C@@H](C)O)NC1=O	MY2062	16 µg/mL
CNC1C(C)OC(O[C@H]2c3cc(C)c(C(=O)NC(C)C(=O)OC)c(O)c3-c3c(cc4c(c3O)C(=O)c3cc(OC)cc(O)c3C4=O)[C@@H]2O)C(O)C1OC1OC(CO)C(O)C(O)C1F	IAM 4514	3.1 µg/mL
C=C(CC[C@@H](C)[C@H]1C[C@@H](O)[C@@]2(C(=O)O)C3=C(CC[C@]12C)[C@@]1(C)CC[C@H](O[C@@H]2O[C@@H](CO)[C@H](OC)[C@@H](O)[C@@H]2O)C(=C)[C@@H]1CC3)C(C)C	MY2061	>64 µg/mL
[Cl-].[Li+]	H99 ΔCNA1 mutant	>42 µg/mL
CCC(C)CC(C)CCCCCCCCC(=O)N[C@H]1C[C@@H](O)[C@@H](OCCN)NC(=O)[C@@H]2C[C@@H](O)CN2C(=O)[C@H]([C@H](O)CCN)NC(=O)[C@H]([C@H](O)[C@@H](O)c2ccc(O)cc2)NC(=O)[C@@H]2C[C@@H](O)CN2C(=O)[C@H]([C@@H](C)O)NC1=O	MY2062	16 µg/mL
CC1=COC2OC3(C)CCC4[C@H](C)CCC1[C@@]24O3	ATCC 90113	>50 µg/mL
C[C@@H]1O[C@@H](OC2[C@H](O[C@H]3CC[C@@]4(C)[C@@H](CC[C@]5(C)[C@@H]4CC=C4[C@@H]6CC(C)(C)CC[C@]6(C(=O)O[C@@H]6O[C@H](COC7O[C@H](CO)[C@@H](O[C@@H]8O[C@@H](C)[C@H](O)[C@@H](O)[C@H]8O)[C@H](O)[C@H]7O)[C@@H](O)[C@H](O)[C@H]6O)CC[C@]45C)[C@]3(C)CO)OC[C@H](O)[C@@H]2O)[C@H](O)[C@H](O)[C@H]1O	KCTC 7224	>200 µg/mL
C=C1C(=O)O[C@@H]2O[C@]3(C)CC[C@H]4[C@H](C)CC[C@@H]1C24OO3	ATCC 90113	>50 µg/mL
COc1cc(O)c2c(c1)C(=O)c1c(cc3c(c1O)-c1c(cc(C)c(C(=O)NC(C)C(=O)O)c1O)[C@H](OC1OC(C)C4C(O[C@H](OCCO)CN4C)C1O)[C@H]3O)C2=O	IAM 4514	3.1 µg/mL
CO[C@@H]1O[C@@H]2O[C@]3(C)CC[C@H]4[C@H](C)CC[C@@H]([C@H]1C)C24OO3	ATCC 90113	>50 µg/mL
COc1cc(O)c2c(c1)C(=O)c1c(cc3c(c1O)-c1c(cc(C)c(C(=O)NC(C)C(=O)O)c1O)[C@H](OC1OC(C)C(F)C(O)C1O)[C@H]3O)C2=O	IAM 4514	12.5 µg/mL

Lines come from different laboratories, so protocols vary. a–b is a range or a potency band.